Results of unrelated studies side by side (data: NIAID ChemDB).

Shared fields: tests in culture; organism: Mycobacterium tuberculosis

MIC50, MIC90 and the like: level of inhibition, or share of isolates inhibited.

SMILES	strain or isolate	changes	cell line	read by	conditions	read-out	dose	result
NNC(=O)c1ccncc1	Clinical isolate	MDR		resazurin		MIC		>12.5 µg/mL
COc1ccc(/C=C(/C#N)n2nc3ccccc3n2)cc1OC	H37Rv					inhibition	12.5 µg/mL	31%
COc1ccc(/C=C2\COc3ccccc3C2=O)cc1	H37Rv			broth dilution / resazurin		inhibition	10 µg/mL	59%
C/C(=N\OCc1nnc(COc2ccccc2)o1)c1ccccc1						inhibition	12.5 µg/mL	7–56%
O=C(Nc1ncc([N+](=O)[O-])s1)c1cccnc1	PZA-R					MIC		12.5 µg/mL
N#C/C(=C\c1ccc[nH]1)n1nnc2ccccc21	H37Rv					EC50		>12.5 µg/mL
COC(=O)Cc1cc(C2C3CC4CC(C3)CC2C4)nc2ccccc12	H37Rv					MIC		>6.25 µg/mL
O=C1S/C(=C2/C(=O)N(CN3CCCCC3)c3ccccc32)C(=O)N1CN1CCCCC1	H37Rv			BACTEC		inhibition	12.5 µg/mL	22%
O=C1/C(=C/c2ccccc2Cl)COc2ccccc21	H37Rv			broth dilution / resazurin		inhibition	10 µg/mL	71%
NNC(=O)c1ccncc1	Pyr-r			resazurin		MIC		50–100 µg/mL
COc1ccc(CCC(=O)c2ccc(Oc3ccccc3)c(O)c2)cc1	H37Rv			resazurin		MIC		12.5 µg/mL
NNC(=O)c1ccncc1	Clinical isolate 73-A	isoniazid rifampicin pyrazinamide resistant		resazurin / absorbance		MIC		4 µg/mL
CN1CSC(=S)N(C)C1	H37Rv		VERO	BACTEC		MIC		12.5 µg/mL
CCC1Cn2cc([N+](=O)[O-])nc2O1	H37Rv-14A1-3547 (PA-824-resistant)					MIC		0.4 µM
CC1(C)S[C@@H]2[C@H](NC(=O)[C@H](N)c3ccccc3)C(=O)N2[C@H]1C(=O)O	TMC 303					MIC		92 µM
C[C@H]1COc2c(N3CCN(Cc4ccc5c(c4)OCO5)CC3)c(F)cc3c(=O)c(C(=O)O)cn1c23				agar		MIC99		6.5 µM
COC(=O)c1csc(-c2ccc(CO)o2)n1	H37Rv			BACTEC		MIC bound		>12.5 µg/mL
CCCCCCCOc1ccc(NC(=O)OCCN2CCOCC2)cc1	My 331/88					MIC		8 µM
N=C1N=S(=O)(O)N=C(N)/C1=N\Nc1ccc([N+](=O)[O-])cc1	H37Rv			resazurin		MIC bound		>6.25 µg/mL
CCCCCOc1ccccc1NC(=O)OCCN1CCCCCC1	My 331/88					MIC		32 µM
Nc1ccc(C(=O)O)c(O)c1	Clinical isolate 5					MIC		0.2 µg/mL
C/C(=N\OCCc1nnc(/C=C/c2ccccc2)o1)c1ccccc1						inhibition	12.5 µg/mL	7–56%
O=C(O)/C(=C\c1ccccc1)n1nnc2ccccc21	H37Rv					inhibition	12.5 µg/mL	0%
C/C=C/c1ccc2c(c1)[C@@H](C)[C@H](c1ccc(OC)cc1)O2	Clinical isolate 49			resazurin / absorbance		MIC		7.8 µg/mL
C=C1c2[nH]c3ccccc3c2C2C(CC)C1CCN2C	H37Rv			BACTEC		inhibition	12.8 µg/mL	9%
COC(=O)Cc1cc(C2CCCCC2)nc2ccccc12	H37Rv					MIC		>6.25 µg/mL
NC(=O)/C(=C\c1ccc(Cl)cc1)n1nnc2ccccc21	H37Rv					inhibition	12.5 µg/mL	0%
CCCCCCCCOc1cccc(NC(=O)OCC[NH+]2CCCC2)c1	My 331/88					MIC		16 µM
c1ccc(CO/N=C(/Cn2ccnc2)c2ccccc2)cc1	CIP103471					MIC		0.5 µg/mL
CCOC(=O)Cc1cc(C2C3CC4CC(C3)CC2C4)nc2ccccc12	H37Rv					inhibition	6.25 µg/mL	47%
CCOC(=O)c1ccc(NC(=O)C(CC(=O)Nc2ccc(Cl)cc2)C(C)=O)cc1	H37Rv					inhibition	5 µg/mL	0%
CC1COc2c(N3CCC4(CC3)OCCO4)c(F)c([N+](=O)[O-])c3c(=O)c(C(=O)O)cn1c23				agar		MIC99		0.21 µM
Cc1cccc(/C=C2\CCc3ccccc3C2=O)c1	H37Rv			broth dilution / resazurin		inhibition	12.5 µg/mL	40%
COC1=CC(=O)c2c(O)c3c(c(O)c2C1=O)CC(C)(O)OC3	H37Rv			BACTEC		MIC		≥12.8 µg/mL
Clc1ccc(/C(Cn2ccnc2)=N/OC/C=C/c2ccccc2)c(Cl)c1	CIP103471					MIC		8 µg/mL
O=C1/C(=N/O)CC(c2ccccc2)N1Br	H37Rv			BACTEC		MIC		≥12.8 µg/mL
Nc1nc(N)nc(-c2ccc(OCc3ccc(Cl)cc3)cc2)n1	H37Rv			resazurin		MIC		1.76 µM
Clc1ccc(/C(Cn2ccnc2)=N/OCc2cccc3ccccc23)c(Cl)c1	CIP103471					MIC		8 µg/mL
COC(=O)Cc1cc(C2CCCC2)nc2c(C3CCCC3)cccc12	H37Rv					MIC		>6.25 µg/mL
COc1ccc(COc2ccc(-c3nc(N)nc(N)n3)cc2OC)cc1	H37Rv			resazurin		MIC		3.91 µM
Nc1nnc(CON=C(c2ccccc2)c2ccccc2)o1						inhibition	12.5 µg/mL	7–56%
NNC(=O)c1ccncc1	Clinical isolate 2					MIC		>100 µg/mL
Clc1ccc(/C(Cn2ccnc2)=N\OC/C=C/c2ccccc2)c(Cl)c1	CIP103471					MIC		8 µg/mL
O=C(CCc1ccccc1)c1ccc(Oc2ccccc2)c(O)c1	H37Rv			resazurin		MIC		15 µg/mL
NC(=O)c1ccncc1	H37Rv			resazurin		MIC		>25 µg/mL
COc1ccc(-c2nnc(CCO/N=C(\C)c3ccccc3)o2)cc1						inhibition	12.5 µg/mL	7–56%
CCCCCCCOc1ccc(NC(=O)OCC[NH+]2CCCC2)cc1	My 331/88					MIC		16 µM
N#C/C(=C\c1ccc(-c2ccccc2)cc1)n1nnc2ccccc21	H37Rv					EC50		>12.5 µg/mL
CCOC(=O)c1ccc(NC(=O)CC(C(C)=O)C(=O)Nc2ccc(C(=O)OCC)cc2)cc1	H37Rv					inhibition	5 µg/mL	0%
Clc1cc2nnn(C3CCCO3)c2cc1Cl	H37Rv			BACTEC		inhibition	6.25 µg/mL	12%
NC(=O)c1cnccn1	TB186				7 d	inhibition	800 µg/mL	99.3%
NC(=O)/C(=C\c1ccc(Cl)cc1)n1nc2ccccc2n1	H37Rv					EC50		>12.5 µg/mL
O=C(Nc1ccc(NC(=O)/C(Cl)=C/Cl)c2c1C(=O)c1ccccc1C2=O)/C(Cl)=C/Cl	H37Rv			BACTEC		MIC bound		>12.5 µg/mL
COc1cccc(/C=C2\COc3ccccc3C2=O)c1	H37Rv			broth dilution / resazurin		EC50		<0.2 µg/mL
Oc1cc(C(O)CCc2ccccc2)ccc1Oc1ccccc1	Clinical isolate	INH resistant		resazurin		MIC		6.25 µg/mL
O=C([O-])c1cccc2nc3cc4c(c(C(=O)[O-])c3nc12)OCO4.[Na+].[Na+]	H37Rv			BACTEC		inhibition	12.5 µg/mL	8%
COc1ccc(-c2nc(N)nc(N)n2)cc1OCc1cccc(Cl)c1	H37Rv			resazurin		MIC		18.45 µM
Clc1ccc(/C(Cn2ccnc2)=N/OCc2ccc(-c3ccccc3)cc2)cc1	CIP103471					MIC		8 µg/mL
C/C=C/c1ccc2oc(-c3ccc(O)c(OC)c3)c(C)c2c1	Clinical isolate 13 638			resazurin / absorbance		MIC		3.9 µg/mL
N#C/C(=C\c1ccc2c(c1)OCO2)n1nnc2ccccc21	H37Rv					EC50		>12.5 µg/mL
CC1COc2c(N3CCN(C(c4ccccc4)c4ccc(Cl)cc4)CC3)c(F)c([N+](=O)[O-])c3c(=O)c(C(=O)O)cn1c23				agar		MIC		2.63 µM
CC(=O)C(N=Nc1ccc(S(=O)(=O)NC2ONC(C)C2C)cc1)C(=O)Nc1ccc(Cl)cc1	H37Rv			BACTEC		inhibition	12.5 µg/mL	1%
COC(=O)c1cc(C2CCCCC2)c2c(C3CCCCC3)cccc2n1	H37Rv					inhibition	6.25 µg/mL	99%
CC(=O)N1C(=O)CC(c2ccccc2)Sc2ccccc21	H37Rv			BACTEC		inhibition	12.5 µg/mL	6%
COc1ccc(-c2nnc(CO/N=C(\C)c3ccccc3)o2)cc1						inhibition	12.5 µg/mL	7–56%
CC1=C(C)C(=O)c2nn(C)nc2C1=O	H37Rv			BACTEC		inhibition	12.5 µg/mL	93%
Brc1ccc(Nc2nnc(CON=C(c3ccccc3)c3ccccc3)o2)cc1						inhibition	12.5 µg/mL	7–56%
CCCCCOc1ccccc1NC(=O)OCCN1CCOCC1	My 331/88					MIC		62.5 µM
CO[C@H]1/C=C/O[C@@]2(C)Oc3c(C)c(O)c4c(O)c(c(/C=N/N5CCN(C)CC5)c(O)c4c3C2=O)NC(=O)/C(C)=C\C=C\[C@H](C)[C@H](O)[C@@H](C)[C@@H](O)[C@@H](C)[C@H](OC(C)=O)[C@@H]1C	FJ05189	Multidrug-resistant		resazurin		MIC		>256 µg/mL
CCCCCOc1cccc(NC(=O)OCCN2CCCCC2)c1	My 331/88					MIC		32 µM
O=[N+]([O-])c1cn2c(n1)OC[C@@H](OCc1ccc(OC(F)(F)F)cc1)C2	H37Rv-5A1 (PA-824-resistant)					MIC		>100 µM
CC1(C)C2CCC(=O)OC1CC2	H37Rv			BACTEC		inhibition	12.5 µg/mL	14%
Clc1ccc(/C(Cn2ccnc2)=N\OCc2ccccc2)c(Cl)c1	CIP103471					MIC		8 µg/mL
COc1cccc(NC(=O)OCCN2CCOCC2)c1	My 331/88					MIC		1000 µM
COc1cccc(COc2ccc(-c3nc(N)nc(N)n3)cc2)c1	H37Rv			resazurin		MIC		38.66 µM
O=S1(=O)c2ccccc2S(=O)(=O)c2ccccc21	H37Rv			BACTEC		inhibition	12.5 µg/mL	3%
N#C/C(=C\c1ccco1)n1nc2ccccc2n1	H37Rv					EC50		>12.5 µg/mL
COC(=O)Cc1ccnc2ccccc12	H37Rv					inhibition	6.25 µg/mL	0%
Oc1cc(C(O)CCc2ccco2)ccc1Oc1ccccc1	H37Rv			resazurin		MIC		4 µg/mL
COc1cc(/C=N/NC(=O)C[N+](C)(C)C)cc(OC)c1OC	H37Rv			BACTEC		MIC bound		>12.5 µg/mL
C/C(=N\OCc1nnc(-c2ccccc2)o1)c1ccccc1						inhibition	12.5 µg/mL	7–56%
O=C(N/N=C/c1ccc(O)c(S(=O)(=O)O)c1)C(=O)N/N=C/c1ccc(O)c(S(=O)(=O)O)c1	H37Rv			BACTEC		inhibition	12.5 µg/mL	-12%
C[C@H]1COc2c(N3CCSCC3)c(F)cc3c(=O)c(C(=O)O)cn1c23				agar		MIC99		2.14 µM
C=CC(C)(C)C1=CC(=O)C(OC)=CC1=O	H37Rv			BACTEC		inhibition	128 µg/mL	100%
CCOc1ccccc1NC(=O)OCC[NH+]1CCCC1	My 331/88					MIC		1000 µM
CC(=O)C(CC(=O)Nc1cccc2ccccc12)C(=O)Nc1cccc2ccccc12	H37Rv					inhibition	5 µg/mL	0%
C/C(=N\OCCc1nnc(NCc2ccccc2)o1)c1ccccc1						inhibition	12.5 µg/mL	7–56%
c1ccc(/C(Cn2ccnc2)=N\OCc2cccc3ccccc23)cc1	CIP103471					MIC		8 µg/mL
CCc1cc(C(N)=S)ccn1	H37Rv					MIC		2 µg/mL
CC1(C)CC[C@]2(C(=O)O)CC[C@]3(C)C(CC[C@@H]4[C@@]5(C)C[C@H](O)CC(C)(C)[C@@H]5CC[C@]43C)[C@@H]2C1	EMB-R (ATCC 35837)			resazurin		MIC		25 µg/mL
COC(=O)c1nc2[nH]n(-c3ccccc3)c(=O)c2c2c1CCCCCCCCCC2	H37Rv			BACTEC		MIC		≥12.5 µg/mL
CC(=O)C(CC(=O)Nc1ccccc1Cl)C(=O)Nc1cccc2ccccc12	H37Rv					inhibition	30 µg/mL	0%

11 of the rows above, restated:

SMILES | strain or isolate | changes | cell line | read by | conditions | read-out | dose | result
COc1ccc(COc2ccc(-c3nc(N)nc(N)n3)cc2OC)cc1 | H37Rv |  |  | resazurin |  | MIC |  | 3.91 µM
NC(=O)/C(=C\c1ccc(Cl)cc1)n1nc2ccccc2n1 | H37Rv |  |  |  |  | EC50 |  | >12.5 µg/mL
C/C(=N\OCCc1nnc(/C=C/c2ccccc2)o1)c1ccccc1 |  |  |  |  |  | inhibition | 12.5 µg/mL | 7–56%
NC(=O)c1ccncc1 | H37Rv |  |  | resazurin |  | MIC |  | >25 µg/mL
Clc1ccc(/C(Cn2ccnc2)=N\OC/C=C/c2ccccc2)c(Cl)c1 | CIP103471 |  |  |  |  | MIC |  | 8 µg/mL
CC1(C)S[C@@H]2[C@H](NC(=O)[C@H](N)c3ccccc3)C(=O)N2[C@H]1C(=O)O | TMC 303 |  |  |  |  | MIC |  | 92 µM
C/C=C/c1ccc2c(c1)[C@@H](C)[C@H](c1ccc(OC)cc1)O2 | Clinical isolate 49 |  |  | resazurin / absorbance |  | MIC |  | 7.8 µg/mL
COc1cccc(NC(=O)OCCN2CCOCC2)c1 | My 331/88 |  |  |  |  | MIC |  | 1000 µM
CO[C@H]1/C=C/O[C@@]2(C)Oc3c(C)c(O)c4c(O)c(c(/C=N/N5CCN(C)CC5)c(O)c4c3C2=O)NC(=O)/C(C)=C\C=C\[C@H](C)[C@H](O)[C@@H](C)[C@@H](O)[C@@H](C)[C@H](OC(C)=O)[C@@H]1C | FJ05189 | Multidrug-resistant |  | resazurin |  | MIC |  | >256 µg/mL
N#C/C(=C\c1ccc(-c2ccccc2)cc1)n1nnc2ccccc21 | H37Rv |  |  |  |  | EC50 |  | >12.5 µg/mL
O=C(CCc1ccccc1)c1ccc(Oc2ccccc2)c(O)c1 | H37Rv |  |  | resazurin |  | MIC |  | 15 µg/mL

Neighbouring rows are from separate reports. MIC bound comes from a single tested concentration. Inhibition is in % at the dose shown (toxicity tests: loss of growth or viability). Two numbers with a dash give a range or band. ECn: concentration that inhibits the pathogen or its effect by n%. An empty or dashed field is not shown.